Measured values from several laboratories, pooled; numbers as filed in NIAID ChemDB.

All rows: cytotoxicity tests; cells: MDCK; measure: CC50

Two numbers with a dash give a range or band. Lines come from different laboratories, so protocols vary. CCn: concentration that lowers growth or viability of the cells by n%. Blank or dashed fields: not listed here.

SMILES | read by | result
CC(C)CS[C@@H]1C[C@H](n2cnc3c(N)ncnc32)[C@@H](O)[C@H]1O | - | >200 µg/mL
COc1cc(/C=C/c2ccc3c(c2)[C@H](c2cc(O)cc(O)c2)[C@@H](c2ccc(O)cc2)O3)cc(OC)c1 | MTT | 35.9 µg/mL
CC1(C)C[C@@H](O)C[C@](C)(CNC(=S)c2cccc(C(F)(F)F)c2)C1 | - | 15 µg/mL
CC(C)N1C2CCC23CC[C@@H](NC(=O)c2cc(Cl)ccc2O)CC13 | - | 100 µg/mL
Nc1ncc(N)c(NCC2(CO)CC(Cc3ccccc3)C2)n1 | - | 8–23 µM
COc1cc(/C=C/c2ccc3c(c2)[C@H](c2cc(OC)cc(OC)c2)[C@@H](c2ccc(O)cc2)O3)cc(OC)c1 | MTT | >128 µg/mL
Cc1ccc(O)c(C(=O)NCCN2[C@@H](C)CC[C@@H]3CCCC[C@@H]32)c1 | - | >100 µg/mL
COc1cc(NCC2(CO)CCC2)nc(N)n1 | - | 42–100 µM
Nc1nc2c(nc(N)n2[C@@H]2O[C@H](CO)[C@@H](O)[C@H]2F)c(=O)[nH]1 | MTT | >500 µM
CCOC(=O)c1cc(NC(=O)c2ccccc2)c(=O)n2c1[nH]c1ccccc12 | - | 40 µg/mL
Nc1nc(Cl)cc(NCC2(CO)CC(c3ccccc3)C2)n1 | - | 5–8.8 µM
CC(=O)N[C@H]1[C@H]([C@H](O)[C@H](O)CO)OC(C(=O)O)=C[C@@H]1N=C(N)N | neutral red | >1000 µM
CC1(C)C[C@@H](O)C[C@](C)(CNC(=S)c2cccc(F)c2)C1 | - | 70 µg/mL
Nc1nc(Cl)cc(NCC2(CO)CCC(OCc3ccccc3)C2)n1 | - | 0.99–2.5 µM
CCOC(=O)c1cc(CC(=O)c2ccccc2)c(=O)n2c1sc1ccccc12 | - | 40 µg/mL
C/C(=C\CC/C(C)=C/Cc1cc(O)cc(C)c1O)CC/C=C(\C)CC[C@@H](C)C(C)(C)O | - | 8.1 µM
CCOC(=O)c1cc(C#N)c2[nH]c3ccccc3n2c1=O | - | >100 µg/mL
O=C(NCCN1CCC[C@@H]2CCCC[C@H]21)c1cc(Cl)ccc1O | - | 40–45 µg/mL
CC(C)C1CC(CO)(CNc2nc(N)nc(Cl)c2C=O)C1 | - | 13–16 µM
C[C@@H]1CCC[C@H](C)N1CCCNC(=O)c1cc(Cl)ccc1O | - | 100 µg/mL
CCOC(=O)c1cc(CC(=O)c2ccccc2)c(=O)n2c1oc1ccccc12 | - | 40 µg/mL
CC1(C)C[C@@H](O)C[C@](C)(CNC(=S)c2ccccc2)C1 | - | 10 µg/mL
CCC(C)N1C2CCC23CC[C@H](NC(=O)c2cc(Cl)ccc2O)CC13 | - | 100 µg/mL
Nc1nc(Cl)c(N)c(NCC2(CO)CC(CCCc3ccccc3)C2)n1 | - | 0.024–0.053 µM
Cc1ccc(C(=S)NC[C@@]2(C)C[C@H](O)CC(C)(C)C2)c(C)c1 | - | 35 µg/mL
N#Cc1cc(C(=O)O)c(=O)n2c1[nH]c1ccccc12 | - | 200 µg/mL
O=c1[nH]cnc2c1ncn2[C@@H]1O[C@H](CO)[C@@H](O)[C@H]1F | MTT | >500 µM
Nc1nc(Cl)c(N)c(NCC2(CO)CC(Cc3ccccc3)C2)n1 | - | 0.46–0.92 µM
CCOc1nc2c(nc(N)n2[C@@H]2O[C@H](CO)[C@@H](O)[C@H]2F)c(=O)[nH]1 | MTT | >500 µM
Cc1ccc(O)c(C(=S)NC[C@@]2(C)C[C@H](O)CC(C)(C)C2)c1 | - | 20 µg/mL
Nc1ccn([C@@H]2O[C@H](CO)[C@@H](O)[C@H]2F)c(=O)n1 | MTT | 39 µM
N#Cc1cc(NC(=O)c2ccccc2)c(=O)n2c1[nH]c1ccccc12 | - | 22 µg/mL
Cc1ccccc1C(=S)NC[C@@]1(C)C[C@H](O)CC(C)(C)C1 | - | 70 µg/mL

3 of the rows above, restated:

SMILES	read by	result
CCOc1nc2c(nc(N)n2[C@@H]2O[C@H](CO)[C@@H](O)[C@H]2F)c(=O)[nH]1	MTT	>500 µM
CCOC(=O)c1cc(CC(=O)c2ccccc2)c(=O)n2c1oc1ccccc12	-	40 µg/mL
CC1(C)C[C@@H](O)C[C@](C)(CNC(=S)c2cccc(F)c2)C1	-	70 µg/mL